A mixed list of measured activities; the numbers were collected in NIAID ChemDB.

Shared fields: tests in culture; organism: Hepatitis C virus

Blank or dashed fields: not listed here. ECn: concentration that inhibits the pathogen or its effect by n%. Neighbouring rows are from separate reports.

NC(=O)c1nn(Cc2ccccc2NC(=O)C2CC2)c2ccccc12 ; read by: fluorescence ; strain: J399EM ; measure: EC50 ; cells: Huh7.5.1 ; result: >10 µM
O=C(O)c1c(-c2ccccc2O)nc(NCc2nc3ccccc3[nH]2)[nH]c1=O ; read by: replicon / PCR ; measure: EC90 ; cells: Huh7 ; result: 1.78 µM
NC(=O)c1ncn([C@@H]2O[C@H](CO)[C@@H](O)[C@H]2O)n1 ; measure: EC50 ; cells: HuH6 ; result: >33 µM
Oc1cc(O)c2c(c1)OC(c1ccc(O)c(O)c1)C(OC1(c3cc(O)c(O)c(O)c3)Oc3cc(O)cc(O)c3C(O)C1O)C2 ; read by: PCR ; strain: JFH-1 ; measure: EC50 ; cells: Huh7-1 ; result: 9.2 µM
C=CC(=O)NCC(=O)N1C[C@H](Oc2nccc3ccc(Br)cc23)C[C@H]1C(=O)N[C@]1(C(=O)NS(=O)(=O)C2CC2)C[C@H]1C=C ; read by: luciferase ; strain: 1b WT ; measure: EC50 ; result: 0.21 µM
CNC(=O)c1c(-c2ccc(F)cc2)oc2cc(N(CCO)S(C)(=O)=O)c(C3CC3)cc12 ; read by: luciferase ; strain: 1b ; measure: EC50 ; cells: Huh7 ; result: 0.0085 µM
O=C(O)c1c(-c2ccc(F)cc2)nc(SCc2nc3ccccc3[nH]2)[nH]c1=O ; read by: replicon / PCR ; measure: EC50 ; cells: Huh7 ; result: 0.277 µM
C[C@@]1(O)[C@H](O)[C@@H](CO)O[C@H]1n1cnc2c(N)ncnc21 ; read by: luciferase ; strain: 2a ; measure: EC50 ; cells: Huh7 ; result: 0.7987 µM
CCC[C@H](NC(=O)[C@@H]1[C@H]2CCC[C@H]2CN1C(=O)[C@@H](NC(=O)[C@@H](NC(=O)c1cnccn1)C1CCCCC1)C(C)(C)C)C(=O)C(=O)NC1CC1 ; read by: luciferase ; measure: EC50 ; cells: Huh 5-2 ; result: >24 µM
N#Cc1c(-c2ccc(Cl)cc2)nc(NCc2nc3ccccc3[nH]2)[nH]c1=O ; read by: replicon / PCR ; measure: EC50 ; cells: Huh7 ; result: 0.235 µM
CCN(CC)CCN1C(=O)c2cccc3cc(N)cc(c23)C1=O ; read by: PCR ; strain: sg1b ; measure: EC50 ; cells: Huh7-1 ; result: 10.3 µM
CNC(=O)c1c(-c2ccc(F)cc2)oc2cc(N(CCO)S(C)(=O)=O)c(C3CC3)cc12 ; read by: luciferase / replicon ; strain: GT2a ; measure: EC50 ; cells: Huh7 ; result: 0.0433 µM
CC[C@H](C)C(=O)O[C@H]1C[C@H](O)C=C2C=C[C@H](C)C(CC[C@@H](O)C[C@H](O)CC(=O)O)[C@H]21 ; read by: luciferase / replicon ; measure: EC90 ; cells: Huh 5-2 ; result: >20 µM
C[C@@]1(O)[C@H](O)[C@@H](CO)O[C@H]1n1cnc2c(N)ncnc21 ; conditions: 48 h ; measure: EC50 ; cells: Huh7 ; result: 0.17 µM
Fc1ccccc1-c1nc2ccn(Cc3ccc(-c4ccc(C(F)(F)F)cc4C(F)(F)F)nn3)cc-2n1 ; read by: luciferase / replicon ; strain: GT1b ; measure: EC50 ; cells: Huh7 ; result: 0.0032 µM
Cc1cc(N2CCOCC2)nc2ccc(Cc3ccc4nc(N5CCOCC5)cc(C)c4c3)cc12 ; read by: PCR ; strain: sg2a (JFH) ; measure: EC50 ; cells: Huh7-1 ; result: 5.5 µM
C[C@@]1(O)[C@H](O)[C@@H](CO)O[C@H]1c1ccc2c(N)ncnn12 ; read by: PCR ; strain: GT2a ; measure: EC50 ; cells: Huh7.5 ; result: 0.63 µM
CNC(=O)c1c(-c2ccc(F)cc2)oc2cc(N(CCO)S(C)(=O)=O)c(C3CC3)cc12 ; read by: PCR ; measure: EC50 ; cells: Huh 9-13 ; result: >33 µM
NC(=O)c1nn(Cc2cccc(NC(=O)c3ccc(F)cc3)c2)c2ccccc12 ; changes: Luciferase reporter gene ; read by: luciferase / replicon ; strain: J399EM ; measure: EC50 ; cells: Huh7.5.1 ; result: 0.018 µM
CC(=O)OC1CCC2(C)C(CCC3C2CC(=O)C2(C)C3CC(N3CC3)C2C(C)=O)C1 ; read by: PCR ; strain: sg1a (H77) ; measure: EC50 ; cells: Huh7-1 ; result: 14.15 µM
Cc1ccccc1C(=O)Nc1cccc(Cn2nc(C(N)=O)c3ccccc32)c1 ; read by: fluorescence ; strain: J399EM ; measure: EC50 ; cells: Huh7.5.1 ; result: 0.035 µM
CC(C)(C)OC(=O)N[C@@H]1CCCCC/C=C\[C@@H]2C[C@@]2(C(=O)NS(=O)(=O)C2CC2)NC(=O)[C@@H]2C[C@@H](OC(=O)N3Cc4cccc(F)c4C3)CN2C1=O ; read by: antigen ; strain: 452 ; measure: EC50 ; cells: Huh7.5 ; result: 2.671 µM
NC(=O)c1nn(Cc2ccc(N)cc2)c2ccccc12 ; read by: fluorescence ; strain: J399EM ; measure: EC50 ; cells: Huh7.5.1 ; result: >10 µM
C[C@@]1(O)[C@H](O)[C@@H](CO)O[C@H]1n1cnc2c(N)ncnc21 ; changes: P58L ; read by: luciferase / reporter gene ; strain: genotype 1b ; measure: EC50 ; cells: Huh7.5 ; result: 0.0277 µM
O=C(O)c1c(-c2ccccc2Cl)nc(NCc2nc3ccccc3[nH]2)[nH]c1=O ; read by: replicon / PCR ; measure: EC90 ; cells: Huh7 ; result: 1.43 µM
CCC[C@H](NC(=O)[C@@H]1[C@H]2CCC[C@H]2CN1C(=O)[C@@H](NC(=O)[C@@H](NC(=O)c1cnccn1)C1CCCCC1)C(C)(C)C)C(=O)C(=O)NC1CC1 ; read by: antigen ; strain: J6 ; measure: EC50 ; cells: Huh7.5 ; result: 0.844 µM
O=C1OC2(c3ccc(O)cc3Oc3cc(O)ccc32)c2c1c(-c1ccccc1)c(-c1ccccc1)c(-c1ccccc1)c2-c1ccccc1 ; read by: PCR ; strain: sg1b ; measure: EC50 ; cells: Huh7-1 ; result: 4.7 µM
CC1CCC(C(=O)N(c2cc(C#CC(C)(C)C)sc2C(=O)O)C2CCC(O)CC2)CC1 ; read by: luciferase ; strain: GT 1a-H77 ; measure: EC50 ; cells: Huh7-Lunet ; result: 0.013 µM
O=C(O)c1ccc2c(c1)nc(-c1ccc(OCc3cc(N4CCCC4=O)ccc3-c3ccc(Cl)cc3)cc1F)n2C1CCCCC1 ; read by: luciferase / replicon ; strain: GT1b ; measure: EC50 ; cells: Huh7 ; result: 0.2571 µM
C[C@@]1(O)[C@H](O)[C@@H](CO)O[C@H]1c1cnc2c(N)ncnn12 ; read by: luciferase ; strain: GT-1b Con1 ; measure: EC50 ; cells: Huh7 ; result: 1.3 µM
Fc1ccccc1-c1nc2ccn(Cc3ccc(-c4ccc(C(F)(F)F)cc4C(F)(F)F)nn3)cc-2n1 ; read by: luciferase ; strain: 2a ; measure: EC50 ; cells: Huh7 ; result: 22.05 µM
CO[C@H]1[C@@H](O)[C@@H](C)O[C@H](O[C@H]2[C@H](Oc3cccc4c(O)c5c(=O)oc6ccc(C)c7c(=O)oc(c34)c5c67)O[C@H](C)[C@H](O)[C@@H]2O)[C@@H]1O ; read by: PCR ; strain: sg1a (H77) ; measure: EC50 ; cells: Huh7-1 ; result: 1.4 µM
NC(=O)c1nn(Cc2cccc(NC(=O)Cc3ccccc3)c2)c2ccccc12 ; read by: fluorescence ; strain: J399EM ; measure: EC50 ; cells: Huh7.5.1 ; result: 0.539 µM
CC1=CC[C@H](C(=O)N(c2cc(C#CC(C)(C)C)sc2C(=O)O)C2CCC(O)(CO[C@H]3CCOC3)CC2)CC1 ; read by: luciferase ; strain: GT 1a-H77 ; measure: EC50 ; cells: Huh7-Lunet ; result: 0.011 µM

The first 5 rows once more:

SMILES | conditions | changes | read by | strain | measure | cells | result
NC(=O)c1nn(Cc2ccccc2NC(=O)C2CC2)c2ccccc12 |  |  | fluorescence | J399EM | EC50 | Huh7.5.1 | >10 µM
O=C(O)c1c(-c2ccccc2O)nc(NCc2nc3ccccc3[nH]2)[nH]c1=O |  |  | replicon / PCR |  | EC90 | Huh7 | 1.78 µM
NC(=O)c1ncn([C@@H]2O[C@H](CO)[C@@H](O)[C@H]2O)n1 |  |  |  |  | EC50 | HuH6 | >33 µM
Oc1cc(O)c2c(c1)OC(c1ccc(O)c(O)c1)C(OC1(c3cc(O)c(O)c(O)c3)Oc3cc(O)cc(O)c3C(O)C1O)C2 |  |  | PCR | JFH-1 | EC50 | Huh7-1 | 9.2 µM
C=CC(=O)NCC(=O)N1C[C@H](Oc2nccc3ccc(Br)cc23)C[C@H]1C(=O)N[C@]1(C(=O)NS(=O)(=O)C2CC2)C[C@H]1C=C |  |  | luciferase | 1b WT | EC50 |  | 0.21 µM